# How the values were obtained:
# [1] = test system: T. cruzi epimastigotes, NINOA strain; assay: Growth inhibition of T. cruzi epimastigotes, NINOA strain; type: cell-based, Trypanosoma cruzi; details: SI = IC50 on J774 cells / IC50 T. cruzi epimastigotes NINOA
# Protocol: (§1) Epimastigotes from T. cruzi strains NINOA and INC-5 were cultured in BHI (brain heart infusion broth, 89%) axenic medium, as reported in [26], at an initial concentration of 1 × 10^6 parasites/mL, at 28 °C, supplemented with 10% foetal bovine serum and 1% sodium penicillin-streptomycin. […] On the last day, the absorbance of the cultures was measured and related to the control. All measurements were carried out in triplicate. No toxic effect was attributable to DMSO. Since parasite growth is exponential, the data were analysed according to a first order equation, and the respective growth constant (k), corresponding to the slope, was calculated for controls and parasites treated with different drug concentrations. From these measurements, percentage growth inhibition (%GI) and half-maximal inhibitory concentration (IC50) values were calculated.
# [2] = test system: T. cruzi epimastigotes, INC-5 strain; assay: Growth inhibition of T. cruzi epimastigotes, INC-5 strain; type: cell-based, Trypanosoma cruzi; details: SI = IC50 on J774 cells / IC50 T. cruzi epimastigotes INC-5
# Protocol: as §1
# [3] = test system: T. cruzi trypomastigotes, INC-5 strain; type: cell-based; details: SI = IC50 on J774 cells / LC50 T. cruzi trypomastigotes INC-5
# Protocol: (§2) Those compounds with the lowest IC50 values in the epimastigote studies of each strain were evaluated in trypomastigotes. For this purpose, bloodstream trypomastigotes of INC-5 and NINOA strains were used for peritoneal injection into 6−8-week-old CD1 mice. The peak of parasitemia was achieved after 4–6 weeks, at which time parasitised blood samples were obtained by cardiac puncture using sodium heparin as an anticoagulant and diluted to a concentration of 1 × 10^6 trypomastigotes/mL. 10 µL of each of the dilutions of the study compounds and Bzn, with these being placed in a 96-well plate, and 90 µL of infected blood was added, providing a final volume of 100 µL per well. The microplates were incubated at 4 °C for 24 h, and concentrations of 20 µM, 10 µM, and 5 µM of each compound were considered in these experiments. Each evaluation was performed in triplicate. Wells with untreated blood trypomastigotes were used as a negative lysis control and Bzn as a positive control. Then, the degree of lysis of trypomastigotes was determined by their reduction in number using an optical microscope according to the Brener–Pizzi method. For this purpose, 5 μL of blood was placed between a slide and a 13 × 13 coverslip. Mobile trypomastigotes were counted in 15 microscope fields at 40× magnification. Quantification of the degree of lysis for each case was expressed as a percentage considering the number of viable trypomastigotes with respect to the negative control. The half-maximal lytic concentration (LC50) was determined by linear regression. The experiments were carried out in accordance with the recommendations and approval of the local Ethics and Research Committee (Approval number: ENCB/CEI/078/2020).
# [4] = test system: T. cruzi trypomastigotes, NINOA strain; type: cell-based; details: SI = IC50 on J774 cells / LC50 T. cruzi trypomastigotes NINOA
# Protocol: as §2
SMILES,NINOA Epi SI [1],INC-5 Epi SI [2],INC-5 Trypo SI [3],NINOA Trypo SI [4]
"O=C(Cn1ccnc1[N+](=O)[O-])NCc1ccccc1 [Bzn, benznidazole, reference compound]",42.9,8.38,4.11,2.36
"O=C(NC1CCN(C2=C(Cl)C(=O)c3ccccc3C2=O)CC1)c1cccc(Cl)c1 [Compound 7c, 3-Chloro-N-(1-(3-chloro-1,4-dioxo-1,4-dihydronaphthalen-2-yl)piperidin-4-yl)benzamide]",48.0,21.9,,0.37
"O=C(NC1CCN(C2=C(Cl)C(=O)c3ccccc3C2=O)CC1)c1cc([N+](=O)[O-])cc([N+](=O)[O-])c1 [Compound 7f, N-(1-(3-chloro-1,4-dioxo-1,4-dihydronaphthalen-2-yl)piperidin-4-yl)-3,5-dinitrobenzamide]",25.2,13.6,0.25,0.32
"COc1ccc(C(=O)NC2CCN(C3=C(Cl)C(=O)c4ccccc4C3=O)CC2)cc1F [Compound 7h, N-(1-(3-chloro-1,4-dioxo-1,4-dihydronaphthalen-2-yl)piperidin-4-yl)-3-fluoro-4-methoxybenzamide]",26.2,16.3,0.23,0.28
"O=C1C(Cl)=C(N2CCC(NC(=O)c3cccc4ccccc34)CC2)C(=O)c2ccccc21 [Compound 7j, N-(1-(3-chloro-1,4-dioxo-1,4-dihydronaphthalen-2-yl)piperidin-4-yl)-1-naphthamide]",76.7,35.9,0.55,0.34

# Reference: publication PMC9228152, “New Amino Naphthoquinone Derivatives as Anti-Trypanosoma cruzi Agents Targeting Trypanothione Reductase” (Pharmaceutics, 2022)
